This is an account of results in PMC6882899 (Scientific Reports, 2019).

Amino acid sequences for entries named in this document (tags omitted). Residues count along the entry.
UniProt Q5U3D9, 1-481 E327D/S330F: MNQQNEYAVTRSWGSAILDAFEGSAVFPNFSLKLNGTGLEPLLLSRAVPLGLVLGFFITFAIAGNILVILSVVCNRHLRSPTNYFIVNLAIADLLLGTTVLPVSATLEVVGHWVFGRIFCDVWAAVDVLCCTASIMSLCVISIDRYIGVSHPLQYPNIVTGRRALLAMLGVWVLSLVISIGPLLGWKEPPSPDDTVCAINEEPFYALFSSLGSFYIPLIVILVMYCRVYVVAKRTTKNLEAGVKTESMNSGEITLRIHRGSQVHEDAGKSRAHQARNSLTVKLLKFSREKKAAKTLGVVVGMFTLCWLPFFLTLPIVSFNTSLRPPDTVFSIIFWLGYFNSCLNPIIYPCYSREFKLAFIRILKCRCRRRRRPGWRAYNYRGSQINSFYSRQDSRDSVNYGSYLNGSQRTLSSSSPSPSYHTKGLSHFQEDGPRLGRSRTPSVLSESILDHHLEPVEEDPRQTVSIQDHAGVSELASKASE
UniProt Q5U3D9, 1-481: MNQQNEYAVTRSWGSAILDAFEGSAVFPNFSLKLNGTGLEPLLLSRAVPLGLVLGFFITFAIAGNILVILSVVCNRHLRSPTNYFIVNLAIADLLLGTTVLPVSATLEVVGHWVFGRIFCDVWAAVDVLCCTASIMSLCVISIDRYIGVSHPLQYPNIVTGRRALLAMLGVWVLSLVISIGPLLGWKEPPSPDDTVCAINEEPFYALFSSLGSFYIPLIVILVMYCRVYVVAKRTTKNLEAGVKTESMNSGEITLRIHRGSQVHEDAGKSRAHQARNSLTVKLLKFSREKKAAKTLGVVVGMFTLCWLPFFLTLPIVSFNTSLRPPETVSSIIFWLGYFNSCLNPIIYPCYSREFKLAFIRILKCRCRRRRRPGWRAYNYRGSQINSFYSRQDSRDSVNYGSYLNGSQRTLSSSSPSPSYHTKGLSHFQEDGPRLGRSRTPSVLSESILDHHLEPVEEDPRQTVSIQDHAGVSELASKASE
UniProt P18841, whole entry, looked up: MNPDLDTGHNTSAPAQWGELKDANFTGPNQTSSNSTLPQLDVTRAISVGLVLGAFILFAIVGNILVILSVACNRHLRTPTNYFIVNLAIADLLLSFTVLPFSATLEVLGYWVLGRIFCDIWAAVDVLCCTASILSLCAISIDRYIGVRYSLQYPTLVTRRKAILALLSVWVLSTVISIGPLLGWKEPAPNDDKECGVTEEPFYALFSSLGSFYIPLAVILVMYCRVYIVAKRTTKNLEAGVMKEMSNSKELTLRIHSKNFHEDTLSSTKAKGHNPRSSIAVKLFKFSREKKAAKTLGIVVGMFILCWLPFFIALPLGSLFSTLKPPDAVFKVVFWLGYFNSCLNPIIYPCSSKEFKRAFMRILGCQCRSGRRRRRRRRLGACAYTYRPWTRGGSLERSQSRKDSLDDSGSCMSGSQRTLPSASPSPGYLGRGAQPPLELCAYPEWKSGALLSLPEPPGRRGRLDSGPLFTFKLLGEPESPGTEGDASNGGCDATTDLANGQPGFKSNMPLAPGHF

Molecules are shown by their SMILES. pEC50, pIC50: −log10 of the molar value.

For data set [1], the target named is ZFα1BB-E327D/S330F-AR (Danio rerio, UniProt Q5U3D9, E327D/S330F). The experiment in a line: IP-one HTRF functional assay. Background: TR-FRET usually uses a lanthanide donor and a delayed reading to cut background.
The test system of data set [2] is 5-dpf zebrafish larvae.
Data set [3] deals with zebrafish WT α1BB-AR (Danio rerio, UniProt Q5U3D9). The experiment in a line: IP-one HTRF functional assay. Format: cell-based. Conditions: read-out: IP-one functional assay IC50; inhibition of 10 µM NE-induced IP1 accumulation, transfected COS-1 cells, mean ± SEM (n = 6).
Data set [4] relates to fish. Conditions: cited from earlier work.
Data set [5] concerns the target T1, Hamster α1B-AR (Mesocricetus auratus, UniProt P18841). Nature of the data set: IP-one HTRF functional assay. The following applies: read-out: IP-one functional assay IC50; inhibition of 1 µM NE-induced IP1 accumulation, transfected COS-1 cells, mean ± SEM (n = 3).
The target of data set [6] is E327D/S330F-ZFα1BB-AR (Danio rerio, UniProt Q5U3D9, E327D/S330F). Nature of the data set: 3H-prazosin radioligand binding assay. The following applies: read-out: Radioligand binding assay IC50; 0.5 nM 3H-prazosin, COS-1 membranes, 60 min room temperature, mean ± SEM (n = 3).
Data set [7] addresses T1, Hamster α1B-AR. The experiment in a line: 3H-prazosin radioligand binding assay. The following applies: read-out: Radioligand binding assay IC50; 0.5 nM 3H-prazosin, COS-1 membranes, 60 min room temperature, mean ± SEM (n = 3).
For data set [8], the target named is WT ZF α1BB-AR (Danio rerio, UniProt Q5U3D9). The experiment in a line: 3H-prazosin radioligand binding assay. Conditions: read-out: Radioligand binding assay IC50; 0.5 nM 3H-prazosin, COS-1 membranes, 60 min room temperature, mean ± SEM (n = 3).

Regarding `NC[C@H](O)c1ccc(O)c(O)c1` [NE, norepinephrine], in data set [1] (read-out: EC50, NE-activated signalling to IP1, transfected COS-1 cells, IP-one HTRF), the pEC50 (commonly the negative decadic logarithm of the EC50, by convention in mol/L) is 6.62.
For `N=C(N)NCCC[C@H](NC(=O)[C@H](Cc1c[nH]c2ccccc12)NC(=O)[C@H](CC(N)=O)NC(=O)[C@@H](N)Cc1ccccc1)C(=O)N[C@H]1CSSC[C@@H](C(N)=O)NC1=O`, the pIC50 (as a rule, the IC50 on a negative log10 scale, so that one unit is a factor of ten) in data set [2] is less than 5.00.
Turning to `CC[C@H](C)[C@@H]1NC(=O)[C@H](CC(C)C)NC(=O)[C@@H]2CSSC[C@@H](C(N)=O)NC(=O)[C@H](Cc3ccccc3)NC(=O)[C@H](CCCCN)NC(=O)[C@H](CCCCN)NC(=O)[C@H](Cc3c[nH]cn3)NC(=O)[C@H](CC(N)=O)NC(=O)[C@H](CCCNC(=N)N)NC(=O)[C@H](CCCNC(=N)N)NC(=O)[C@H](CSSC[C@H](N)C(=O)N2)NC(=O)[C@H](C)NC(=O)[C@@H]2CCCN2C1=O`, the pIC50 in data set [2] was less than 5.00.
`CC[C@H](C)[C@@H]1NC(=O)[C@H](CC(C)C)NC(=O)[C@@H]2CSSC[C@@H](C(N)=O)NC(=O)[C@H](Cc3ccccc3)NC(=O)[C@H](CCCCN)NC(=O)[C@H](CCCCN)NC(=O)[C@H](Cc3c[nH]cn3)NC(=O)[C@H](CC(N)=O)NC(=O)[C@H](CCCNC(=N)N)NC(=O)[C@H](CCCNC(=N)N)NC(=O)[C@H](CSSC[C@H](NC(=O)[C@H](CCCNC(=N)N)NC(=O)[C@H](Cc3c[nH]c4ccccc34)NC(=O)[C@H](CC(N)=O)NC(=O)[C@@H](N)Cc3ccccc3)C(=O)N2)NC(=O)[C@H](C)NC(=O)[C@@H]2CCCN2C1=O`: the negative-log IC50 (pIC50) was 4.82 in data set [3]; 6.72 in data set [2]; 5.81 in data set [5]; 5.58 in data set [1] (read-out: IP-one functional assay IC50, inhibition of 10 µM NE-induced IP1 accumulation, transfected COS-1 cells, mean ± SEM (n = 4)); 7.05 in data set [6]; 8.36 in data set [7]. Further, the pIC50 in data set [8] was 5.49. The negative-log EC50 (pEC50) in data set [2] is 6.72. Besides, the “effect of injection into fish, in words” value in data set [4] is “did not reveal a phenotype”. The “improvement in potency at E327D/S330F mutant compared with WT ZF receptor” value in data set [1] (IP-one IC50 ratio) is reported as 6 fold.
In turn, `CC[C@H](C)[C@@H]1NC(=O)[C@H](CC(C)C)NC(=O)[C@@H]2CSSC[C@@H](C(N)=O)NC(=O)[C@H](Cc3ccccc3)NC(=O)[C@H](CCCCN)NC(=O)[C@H](CCCCN)NC(=O)[C@H](Cc3c[nH]cn3)NC(=O)[C@H](CC(N)=O)NC(=O)[C@H](CCCNC(=N)N)NC(=O)[C@H](CCCNC(=N)N)NC(=O)[C@H](CSSC[C@H](NC(=O)[C@H](CCCNC(=N)N)NC(=O)[C@H](Cc3c[nH]c4ccccc34)NC(=O)[C@@H](N)CC(N)=O)C(=O)N2)NC(=O)[C@H](C)NC(=O)[C@@H]2CCCN2C1=O` had a pIC50 in data set [2] of 5.87.
Still for that read-out and setting: under `CC[C@H](C)[C@@H]1NC(=O)[C@H](CC(C)C)NC(=O)[C@@H]2CSSC[C@@H](C(N)=O)NC(=O)[C@H](Cc3ccccc3)NC(=O)[C@H](CCCCN)NC(=O)[C@H](CCCCN)NC(=O)[C@H](Cc3c[nH]cn3)NC(=O)[C@H](CC(N)=O)NC(=O)[C@H](CCCNC(=N)N)NC(=O)[C@H](CCCNC(=N)N)NC(=O)[C@H](CSSC[C@H](NC(=O)[C@@H](N)CCCNC(=N)N)C(=O)N2)NC(=O)[C@H](C)NC(=O)[C@@H]2CCCN2C1=O` stands 5.50.
Regarding `CC[C@H](C)[C@@H]1NC(=O)[C@H](CC(C)C)NC(=O)[C@@H]2CSSC[C@@H](C(N)=O)NC(=O)[C@H](Cc3ccccc3)NC(=O)[C@H](CCCCN)NC(=O)[C@H](CCCCN)NC(=O)[C@H](Cc3c[nH]cn3)NC(=O)[C@H](CC(N)=O)NC(=O)[C@H](CCCNC(=N)N)NC(=O)[C@H](CCCNC(=N)N)NC(=O)[C@H](CSSC[C@H](NC(=O)[C@H](CCCNC(=N)N)NC(=O)[C@@H](N)Cc3c[nH]c4ccccc34)C(=O)N2)NC(=O)[C@H](C)NC(=O)[C@@H]2CCCN2C1=O`, the pIC50 in data set [2] is 5.39.
